Sequence variants of PSTVd loop 15 after infection

The pool varies loop 15 of the PSTVd intermediate strain in the pattern GGAAACCGNNNNNNC; wild type is GGAAACCGCUACUAC (upper and lower strand joined, each 5' to 3', the first 7 letters being the upper strand, closing pairs included).

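Three N. benthamiana plants were inoculated with the whole mutant pool. Progeny were sequenced from the inoculated region (day 5), the margin of the inoculated leaf (day 10) and systemic leaves (day 12).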

Values are reads per thousand in the sample; higher means more abundant, 0 means not found.
Each site shows the three plants.
"Pool" is the share in the plasmid pool used as inoculum, on the same scale.
The inoculated region was read from the minus strand, the other sites from the plus strand.
Wild type was 33.9 per thousand in the pool and the most common sequence in every sample (inoculated region 202, 200, 159; leaf margin 724, 746, 710; systemic leaves 856, 883, 880).
Sequences that differ at fixed positions probably stem from PCR or sequencing errors, and defective variants can be carried along by functional ones.
With 43,870-66,106 reads a sample, very low values are single reads.

{"sequence": "GGAAACCGCGCUCGC", "pool": "0.288", "inoculated region": "0.0819 / 0.129 / 0.0571", "leaf margin": "0.0485 / 0.0223 / 0", "systemic leaves": "0 / 0 / 0"}
{"sequence": "GGAAACCGCGCUCUC", "pool": "0.240", "inoculated region": "0.0819 / 0.0643 / 0.0571", "leaf margin": "0.0162 / 0 / 0.0401", "systemic leaves": "0 / 0 / 0"}
{"sequence": "GGAAACCGCGCUGAC", "pool": "0.304", "inoculated region": "0.0819 / 0.129 / 0.0381", "leaf margin": "0 / 0 / 0.0200", "systemic leaves": "0 / 0 / 0"}
{"sequence": "GGAAACCGCGCUGCC", "pool": "0.384", "inoculated region": "0.131 / 0.0161 / 0.0571", "leaf margin": "0 / 0.0223 / 0", "systemic leaves": "0 / 0 / 0"}
{"sequence": "GGAAACCGCGCUGGC", "pool": "0.336", "inoculated region": "0.0491 / 0.0482 / 0.0952", "leaf margin": "0.0162 / 0.0223 / 0", "systemic leaves": "0 / 0 / 0"}
{"sequence": "GGAAACCGCGCUGUC", "pool": "0.160", "inoculated region": "0.131 / 0.112 / 0.0952", "leaf margin": "0.0323 / 0 / 0", "systemic leaves": "0.0161 / 0 / 0"}
{"sequence": "GGAAACCGCGCUUAC", "pool": "0.208", "inoculated region": "0.328 / 0.209 / 0.267", "leaf margin": "0.129 / 0.0445 / 0.100", "systemic leaves": "0.0322 / 0.0454 / 0"}
{"sequence": "GGAAACCGCGCUUCC", "pool": "0.128", "inoculated region": "0.0328 / 0.0803 / 0.0571", "leaf margin": "0.0323 / 0 / 0.0200", "systemic leaves": "0 / 0 / 0"}
{"sequence": "GGAAACCGCGCUUGC", "pool": "0.240", "inoculated region": "0.0983 / 0.0643 / 0.209", "leaf margin": "0.0485 / 0.0223 / 0.0200", "systemic leaves": "0 / 0 / 0"}
{"sequence": "GGAAACCGCGCUUUC", "pool": "0.176", "inoculated region": "0.246 / 0.289 / 0.228", "leaf margin": "0.113 / 0.0668 / 0.140", "systemic leaves": "0.0483 / 0 / 0"}
{"sequence": "GGAAACCGCGGAAAC", "pool": "0.256", "inoculated region": "0.0328 / 0.0803 / 0.0952", "leaf margin": "0 / 0 / 0", "systemic leaves": "0 / 0 / 0"}
{"sequence": "GGAAACCGCGGAACC", "pool": "0.304", "inoculated region": "0.197 / 0.0964 / 0.0571", "leaf margin": "0 / 0.0223 / 0", "systemic leaves": "0 / 0 / 0"}
{"sequence": "GGAAACCGCGGAAGC", "pool": "0.0960", "inoculated region": "0.0819 / 0.0803 / 0.114", "leaf margin": "0 / 0.0223 / 0", "systemic leaves": "0 / 0 / 0"}
{"sequence": "GGAAACCGCGGAAUC", "pool": "0.176", "inoculated region": "0.147 / 0.0964 / 0.114", "leaf margin": "0 / 0.0223 / 0", "systemic leaves": "0 / 0 / 0"}
{"sequence": "GGAAACCGCGGACAC", "pool": "0.352", "inoculated region": "0.0819 / 0.145 / 0.0190", "leaf margin": "0 / 0 / 0.0200", "systemic leaves": "0.0161 / 0 / 0"}
{"sequence": "GGAAACCGCGGACCC", "pool": "0.208", "inoculated region": "0.0491 / 0.0964 / 0.0762", "leaf margin": "0 / 0 / 0", "systemic leaves": "0 / 0 / 0"}
{"sequence": "GGAAACCGCGGACGC", "pool": "0.352", "inoculated region": "0.0819 / 0.0803 / 0.0762", "leaf margin": "0 / 0 / 0.0200", "systemic leaves": "0 / 0 / 0"}
{"sequence": "GGAAACCGCGGACUC", "pool": "0.288", "inoculated region": "0.0819 / 0.0964 / 0.133", "leaf margin": "0 / 0 / 0.0200", "systemic leaves": "0 / 0 / 0"}
{"sequence": "GGAAACCGCGGAGAC", "pool": "0.240", "inoculated region": "0.115 / 0.112 / 0", "leaf margin": "0 / 0.0445 / 0.0200", "systemic leaves": "0 / 0 / 0"}
{"sequence": "GGAAACCGCGGAGCC", "pool": "0.256", "inoculated region": "0.262 / 0.273 / 0.324", "leaf margin": "0 / 0 / 0.0601", "systemic leaves": "0 / 0 / 0"}
{"sequence": "GGAAACCGCGGAGGC", "pool": "0.256", "inoculated region": "0.0491 / 0.0482 / 0.114", "leaf margin": "0.0162 / 0 / 0", "systemic leaves": "0 / 0 / 0"}
{"sequence": "GGAAACCGCGGAGUC", "pool": "0.368", "inoculated region": "0.262 / 0.145 / 0.152", "leaf margin": "0.0162 / 0 / 0.0200", "systemic leaves": "0 / 0 / 0"}
{"sequence": "GGAAACCGCGGAUAC", "pool": "0.176", "inoculated region": "0.344 / 0.225 / 0.419", "leaf margin": "0.0485 / 0.156 / 0.200", "systemic leaves": "0.0483 / 0.0908 / 0.0684"}
{"sequence": "GGAAACCGCGGAUCC", "pool": "0.176", "inoculated region": "0.115 / 0.112 / 0.0762", "leaf margin": "0 / 0 / 0", "systemic leaves": "0 / 0 / 0"}
{"sequence": "GGAAACCGCGGAUGC", "pool": "0.240", "inoculated region": "0.0491 / 0.0803 / 0.0571", "leaf margin": "0 / 0 / 0", "systemic leaves": "0 / 0 / 0"}
{"sequence": "GGAAACCGCGGAUUC", "pool": "0.272", "inoculated region": "0.360 / 0.305 / 0.457", "leaf margin": "0.0970 / 0.0223 / 0.240", "systemic leaves": "0.0322 / 0 / 0"}
{"sequence": "GGAAACCGCGGCAAC", "pool": "0.224", "inoculated region": "0.131 / 0.129 / 0.0762", "leaf margin": "0.0162 / 0 / 0.0200", "systemic leaves": "0 / 0 / 0"}
{"sequence": "GGAAACCGCGGCACC", "pool": "0.224", "inoculated region": "0.246 / 0.193 / 0.190", "leaf margin": "0.0323 / 0 / 0.0200", "systemic leaves": "0.0161 / 0 / 0"}

2 of these entries, quoted again:

- GGAAACCGCGGAAUC (pool 0.176): inoculated region 0.147 / 0.0964 / 0.114; leaf margin 0 / 0.0223 / 0; systemic leaves 0 / 0 / 0
- GGAAACCGCGGAGGC (pool 0.256): inoculated region 0.0491 / 0.0482 / 0.114; leaf margin 0.0162 / 0 / 0; systemic leaves 0 / 0 / 0

Source: Wu et al. 2024 (doi:10.1371/journal.ppat.1012142), supplementary data.